# Laboratory results: PubChem BioAssay AID1259414 (Drosophila RNAi Screening Center, 2018)
# Test: 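Host factors increasing or decreasing Wolbachia levels in cultured fly cells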 (primary screen)
# Cells: Drosophila JW18 cells infected with Wolbachia
# Reagents: long dsRNA against Drosophila genes, 0.25 µg dsRNA per well of a 384-well plate
# Time to read-out: 5 days
# Conditions: cells persistently infected with Wolbachia before knock-down; no added drug
# Measurement: 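Automated imaging of bacterial rRNA staining divided by host cell count, reported as plate-normalised robust z-score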
# Reading the numbers: Wolbachia per cell robust z: higher = more Wolbachia per host cell than the plate typical
# Call rule: 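Active if absolute robust z reaches 1.5 in two or more of three replicates, leaving out multi- or no-target dsRNAs, genes unexpressed in JW18 and A1 wells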
# The screen tested about 24,000 reagents; shown is a random part of those with a known target gene and a result. Of all reagents, about 1,210 (5%) are marked active. 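Inactive calls also include excluded dsRNAs with several or no targets, genes unexpressed in JW18, and well A1, regardless of score.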 Entries without a mark were called inactive. Names joined by + are all predicted targets of the reagent. No sequences are given here.
predicted target,DRSC id,"Wolbachia per cell robust z, rep 1","Wolbachia per cell robust z, rep 2","Wolbachia per cell robust z, rep 3"
CG6153,DRSC02935,0.0731,-0.322,-0.303
w,DRSC18850,0.893,-1.46,0.15
w,DRSC30065,-0.939,-0.282,-1.36
EMC5,DRSC02469,-0.961,-0.184,-0.488
CG9231,DRSC11054,-0.0642,-2.75,-0.861
Gnf1,DRSC12351,-0.107,0.799,0.457
Gnf1,DRSC26682,-0.52,0.334,0.0954
bocks,DRSC16489,0.287,0.21,-1.55
Jhbp5,DRSC14240,0.751,-0.259,-0.28
Rcd6,DRSC06054,0.0167,0.855,0.382
Rcd6,DRSC27115,-0.198,-0.379,-0.0355
mRpL15,DRSC11771,0.389,0.0334,-0.915
mRpL15,DRSC24402,0.556,0.282,-0.223
CG5346,DRSC15778,-3.08 (active),-5.24,0.0789
CG5346,DRSC26107,-0.626,0.129,-0.477
CG5346,DRSC39072,0.817,0.214,0.334
CG18538,DRSC06765,-1.22,-5.06,0.544
GIIIspla2,DRSC18094,1.28,-0.0464,-3.62
GIIIspla2,DRSC27426,0.682,-0.038,0.314
CrebB,DRSC20232,0.871,1.01,1.24
CrebB,DRSC23558,0.555,-6.83,-1.14
MtnD,DRSC22733,0.0441,-1.54,-0.316
CG31021,DRSC22319,-1.22,-0.585,-0.97
Elo68beta,DRSC09860,1.16,1.14,0.396
CG16904,DRSC15161,-1.23,-7.35,-1.13
CG16904,DRSC25306,-0.37,-0.329,0.65
Obp50a,DRSC22152,0.278,0.793,0.893
Obp50a,DRSC28404,0.773,0.207,0.337
Obp50a,DRSC41277,0.463,-0.713,-1.38
Dlish,DRSC06016,-0.421,-1.19,0.209
RpS23,DRSC07169,1.32,1.03,2.52
RpS23,DRSC26313,3.54 (active),2.88,5.14
lncRNA:CR33948,DRSC37885,-1.43,-0.954,-0.678
CG42304 + Snup,DRSC08277,-0.361,-2.01,-0.625
CG42304 + Snup,DRSC23772,-1.56,0.383,-0.261
CG42304 + Snup,DRSC39092,-0.281,-1.26,-1.26
CG15879,DRSC08487,1.34,0.103,0.363
CG15879,DRSC27002,0.547,0.685,-0.4
CG15528,DRSC15065,-4.86,0.652,-0.536
CG1513,DRSC05194,1.54,-1.79,1.42
CG1513,DRSC06553,0.517,0.517,0.523
CG1513,DRSC06554,0.333,0.508,0.587
wda,DRSC15579,0.408,0.476,-0.291
wda,DRSC22351,0.11,0.396,0.71
Cyt-c1L,DRSC14860,-3.35,-0.184,0.927
Cyt-c1L,DRSC22096,-0.357,0.599,0.224
Cyt-c1L,DRSC28229,0.686,0.589,1.13
CG45076 + fau + CG45078,DRSC12817,-0.55,-0.122,-9.38
CG45076 + fau + CG45078,DRSC16943,-1.13,0.39,-0.0242
CG45076 + fau + CG45078,DRSC16944,0.608,-0.605,1.24
CG45076 + fau + CG45078,DRSC27672,0.0124,0.394,-0.954
Sema2b,DRSC05609,0.169,0.339,0.369
Sema2b,DRSC06867,0.0655,-0.26,0.814
Sema2b,DRSC24672,0.407,-0.329,-0.744
Obp46a,DRSC06220,-0.25,-4.01,0.222
CG41520,DRSC21102,-1.19,-1.27,-0.432
CG41520,DRSC37912,-0.0985,0.147,0.888
jb,DRSC20531,-1.55,-1.29,-1.46
jb,DRSC41529,0.126,-0.742,0.764
vsg,DRSC10219,0.394,-0.0271,-0.494
vsg,DRSC25227,-0.352,-1.45,0.124
CYLD,DRSC02870,-0.761,-0.334,-0.604
Grl40a,DRSC38905,0.015,0.424,0.081
LS2,DRSC04340,-1.23,-0.0828,-0.562
Or33c,DRSC03388,-4.43,-0.544,-0.835
MAPk-Ak2,DRSC18678,0.519,-0.162,0.556
MAPk-Ak2,DRSC29642,0.898,1.19,0.539
MAPk-Ak2,DRSC41556,-1.69,0.395,0.508

4 entries from above, reduced to “Wolbachia per cell robust z, rep 3”:
CG16904 [DRSC15161]	-1.13
CG16904 [DRSC25306]	0.65
Obp50a [DRSC22152]	0.893
Obp50a [DRSC28404]	0.337
